Anti-infective test results gathered from many reports (values: NIAID ChemDB through PubChem).

Common to all: growth or infection tests; organism: Junin virus

Percent inhibition refers to the dose given; in toxicity tests it is the harm to the cells. An empty or dashed field is not shown. ECn is the concentration giving n% inhibition of infection, replication or growth. Conditions beyond the fields shown may differ between rows.

structure	cell line	strain or isolate	tested at	endpoint	value
Cc1cn(C(CF)CCCO)c(=O)[nH]c1=O	VERO	-	-	EC50	>200 µg/mL
CC[C@@H](C(C)C)[C@H](O)[C@@H](O)[C@@H](C)[C@H]1CC[C@H]2[C@@H]3CC(=O)[C@@]4(O)C[C@@H](Br)CC[C@]4(C)[C@H]3CC[C@]12C	VERO	IV4454	-	EC50	0.4 µM
Nc1nccc2c1ncn2[C@@H]1C[C@H](CO)[C@@H](O)[C@H]1O	-	-	-	MIC	1 µg/mL
CC12CC[C@H](O)CC1=CCC1C2CCC2(C)C(C(=O)COS(=O)(=O)O)CCC12	VERO	IV4454	80 µg/mL	inhibition	18.4%
CC[C@@H](C(C)C)[C@@H](O)[C@H](O)[C@@H](C)[C@H]1CC[C@H]2[C@@H]3CC(=O)[C@H]4C[C@@H](OC(C)=O)CC[C@]4(C)[C@H]3CC[C@]12C	VERO	IV4454	-	EC50	6.1 µM
Nc1ncnc2c1ncn2[C@@H]1C=C[C@@H](O)[C@H]1O	-	-	-	MIC	1 µg/mL
CC(C)=CCCC(COS(=O)(=O)O)C1CCC2C3CC=C4C[C@H](O)[C@@H](OS(=O)(=O)O)CC4(C)C3CCC12C	VERO	IV4454	40 µg/mL	inhibition	35%
CC[C@@H](C(C)C)[C@H](O)[C@@H](O)[C@@H](C)[C@H]1CC[C@H]2[C@@H]3CC(=O)[C@@]4(O)C[C@@H](OC(C)=O)CC[C@]4(C)[C@H]3CC[C@]12C	VERO	IV4454	-	EC90	15.9 µM
CC[C@H](O)C1=C[C@@H](n2cnc3c(N)ncnc32)[C@H](O)[C@@H]1O	VERO	-	-	EC50	50 µg/mL
Cc1cn([C@@H]2O[C@H](CO)[C@](O)(C(F)(F)F)[C@H]2O)c(=O)[nH]c1=O	VERO	-	-	EC50	>50 µg/mL
Nc1nc(F)nc2c1ncn2[C@@H]1C=C(CO)[C@@H](O)[C@H]1O	VERO	-	-	EC50	0.6 µg/mL
CC[C@@H](C(C)C)[C@H](O)[C@@H](O)[C@@H](C)[C@H]1CC[C@H]2[C@@H]3CC(=O)[C@H]4C[C@H](O)[C@H](O)C[C@]4(C)[C@H]3CC[C@]12C	VERO	IV4454	-	EC90	10 µM
Nc1ccn(C(CF)CCCO)c(=O)n1	VERO	-	-	EC50	>50 µg/mL
CC[C@@H](C(C)C)[C@@H](O)[C@H](O)[C@@H](C)[C@H]1CC[C@H]2[C@@H]3CC(=O)[C@@]4(O)C[C@H](O)[C@H](O)C[C@]4(C)[C@H]3CC[C@]12C	VERO	IV4454	-	EC90	4 µM
CC12CCC3C(C[C@H](OS(=O)(=O)O)[C@H]4C[C@@H](OS(=O)(=O)O)CCC34C)C1CCC2C(=O)CO	VERO	IV4454	40 µg/mL	inhibition	2.6%
CC[C@@H](C(C)C)[C@@H](O)[C@H](O)[C@@H](C)[C@H]1CC[C@H]2[C@@H]3CC(=O)[C@H]4C[C@@H](Br)CC[C@]4(C)[C@H]3CC[C@]12C	VERO	IV4454	-	EC90	3.6 µM
Nc1ncnc2c1ncn2[C@@H]1C=C(CO)[C@@H](O)[C@H]1O	VERO	-	-	EC50	0.5 µg/mL
Nc1ccn([C@@H]2C=C(CO)[C@@H](O)[C@H]2O)c(=O)n1	VERO	-	-	EC50	0.03 µg/mL
O=c1ccn([C@@H]2O[C@H](CO)[C@](O)(C(F)(F)F)[C@H]2O)c(=O)[nH]1	VERO	-	-	EC50	>200 µg/mL

A second listing of 3 rows from above:

CC[C@@H](C(C)C)[C@@H](O)[C@H](O)[C@@H](C)[C@H]1CC[C@H]2[C@@H]3CC(=O)[C@H]4C[C@@H](Br)CC[C@]4(C)[C@H]3CC[C@]12C ; cell line: VERO ; strain or isolate: IV4454 ; endpoint: EC90 ; value: 3.6 µM
Nc1nc(F)nc2c1ncn2[C@@H]1C=C(CO)[C@@H](O)[C@H]1O ; cell line: VERO ; endpoint: EC50 ; value: 0.6 µg/mL
O=c1ccn([C@@H]2O[C@H](CO)[C@](O)(C(F)(F)F)[C@H]2O)c(=O)[nH]1 ; cell line: VERO ; endpoint: EC50 ; value: >200 µg/mL